Reference: PMC5501398 (PLoS ONE, 2017)

Target: T1, VcIIPK (Vibrio cholerae, UniProt Q9KQJ0)
T1 construct: gene VC_2008

ADP-Cr^2+
Ki: 1300 ± 100 µM
